In article PMC8626775, “Anti-schistosomal activities of quinoxaline-containing compounds: From hit identification to lead optimisation” (European Journal of Medicinal Chemistry, 2021):

Key:
S. mansoni schistosomula = S. mansoni schistosomula high-throughput phenotype and motility screen (Roboworm), 72 h; assay type: cell-based, Schistosoma mansoni; details: 38 versus 29; 22a versus 22
Method: Cercariae derived from the NMRI ([…]) Puerto Rican strain (PR-1) of S. mansoni were shed from two Biomphalaria glabrata strains, the NMRI albino and pigmented outbred strains, under intensified lighting conditions (1 h of incubation at 26 °C). Cercariae were then mechanically transformed into schistosomula as previously described.
High-throughput screening (HTS) of selected compounds was conducted as previously described. Briefly, newly transformed schistosomula were distributed in a 384-well tissue culture plate (PerkinElmer, cat 6007460, seeding density of 120 parasites/well). Each compound (at a single concentration or two-fold titrations) was transferred into individual wells alongside the positive and negative controls (AUR at 10 μM final concentration in 0.625% DMSO and 0.625% DMSO, respectively). Schistosomula/compound co-cultures were then incubated at 37 °C for 72 h in a humidified atmosphere containing 5% CO2. Following the co-culture period, automatic assessment of compound-induced schistosomula motility and phenotypic changes were conducted with the high-content imaging platform Roboworm using the image analysis model previously described by Paveley et al..

HepG2 cells = test: HepG2 MTT cytotoxicity assay
Method: Initially the cells were handled under sterile conditions and grown at 37 °C in a humidified atmosphere containing 5% CO2. Cytotoxicity was evaluated by way of a 3-(4, 5- dimethylthiazol-2-yl)-2,5-diphenyl tetrazolium bromide (MTT) assay as previously described. The cells were counted in a dual chamber counting slide using the BIORAD TC-10 Automated cell counter, seeded in a 96-well plate (Fisher Scientific, Loughborough, UK) at a density of 2 × 10^4 cells/well and incubated in an atmosphere of 5% CO2 at 37 °C. […] The absorbance readings (at 570 nm) of the soluble formazan crystals were recorded using PolarStar Omega plate reader (BMG-Labtech). […] The latter was used to calculate the selectivity index (SI) of the compounds presented herein.

Compound | Fold decrease of anti-schistosomal activity relative to the 6-nitro analogue (S. mansoni schistosomula) | Selectivity Index (SI) Adult worms (HepG2 cells; HepG2 CC50 versus adult worm EC50) | Selectivity Index (SI) Somula (HepG2 cells; HepG2 CC50 versus schistosomula EC50)
Nc1ccc2nc(Nc3ccc(Cl)c(Cl)c3)c(Nc3ccc(Cl)c(Cl)c3)nc2c1 [Compound 22a, N^2, N^3-bis(3,4-dichlorophenyl)quinoxaline-2,3,6-triamine] | approximately 10 fold | – | –
N2, N3-bis(4-bromophenyl)quinoxaline-2,3-diamine [Compound 38, reference compound] | 4 fold | 28.65 | 1.90
